PMC5128878 (Scientific Reports, 2016)

Chains of the proteins cited; added tags and fusions are not shown. Lines headed by an entry give the natural chain unless they say otherwise; changes in a name come on top. Residues count along the entry.
UniProt P02716, 25-520 limits assumed: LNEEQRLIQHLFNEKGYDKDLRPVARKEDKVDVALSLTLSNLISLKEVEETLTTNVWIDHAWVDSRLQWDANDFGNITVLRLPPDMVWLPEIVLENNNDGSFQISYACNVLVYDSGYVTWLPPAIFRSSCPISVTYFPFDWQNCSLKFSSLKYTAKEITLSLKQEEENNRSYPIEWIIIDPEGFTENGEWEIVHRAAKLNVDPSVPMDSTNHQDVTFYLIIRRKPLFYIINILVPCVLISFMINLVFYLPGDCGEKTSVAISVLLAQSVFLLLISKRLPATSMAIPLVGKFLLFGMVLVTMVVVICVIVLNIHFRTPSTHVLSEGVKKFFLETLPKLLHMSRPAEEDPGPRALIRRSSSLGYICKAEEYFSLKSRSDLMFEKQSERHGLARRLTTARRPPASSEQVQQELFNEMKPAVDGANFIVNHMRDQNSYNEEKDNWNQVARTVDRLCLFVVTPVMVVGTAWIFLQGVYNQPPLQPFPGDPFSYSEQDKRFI
UniProt P04760, 23-519 limits assumed: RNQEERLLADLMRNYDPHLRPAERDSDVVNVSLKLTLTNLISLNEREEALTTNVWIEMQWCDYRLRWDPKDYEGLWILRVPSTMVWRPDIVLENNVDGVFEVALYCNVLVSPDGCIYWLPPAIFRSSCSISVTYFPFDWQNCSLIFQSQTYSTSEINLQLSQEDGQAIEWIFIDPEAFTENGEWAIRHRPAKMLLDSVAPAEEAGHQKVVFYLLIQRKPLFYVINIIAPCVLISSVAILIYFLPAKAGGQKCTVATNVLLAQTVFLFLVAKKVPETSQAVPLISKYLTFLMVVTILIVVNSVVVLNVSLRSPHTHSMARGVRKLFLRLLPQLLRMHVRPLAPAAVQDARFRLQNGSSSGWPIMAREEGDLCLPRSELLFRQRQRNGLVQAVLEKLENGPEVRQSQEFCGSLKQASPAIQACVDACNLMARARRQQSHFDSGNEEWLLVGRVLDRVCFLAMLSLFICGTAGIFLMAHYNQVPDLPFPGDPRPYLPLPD
UniProt P09690, 24-501 limits assumed: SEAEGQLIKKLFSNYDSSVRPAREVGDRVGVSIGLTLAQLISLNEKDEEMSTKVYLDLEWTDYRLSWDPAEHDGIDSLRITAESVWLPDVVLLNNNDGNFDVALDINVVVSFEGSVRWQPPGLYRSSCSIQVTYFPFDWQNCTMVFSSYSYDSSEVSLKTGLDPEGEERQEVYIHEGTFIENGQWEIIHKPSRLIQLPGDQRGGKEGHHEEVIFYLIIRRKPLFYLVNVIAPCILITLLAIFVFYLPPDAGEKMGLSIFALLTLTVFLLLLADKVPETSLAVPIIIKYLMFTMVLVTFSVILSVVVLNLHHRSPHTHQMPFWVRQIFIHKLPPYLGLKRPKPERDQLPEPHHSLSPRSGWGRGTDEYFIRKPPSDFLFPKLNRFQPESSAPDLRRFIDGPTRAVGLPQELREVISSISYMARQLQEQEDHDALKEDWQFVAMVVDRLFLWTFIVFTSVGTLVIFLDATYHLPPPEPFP

Key:
[1] = test system: human muscle-type nAChRs in TE671 cells; conditions: −100 mV ref 8; cited from earlier work
α1β1γδ nAChR = α1β1γδ nAChR (Mus musculus, UniProt P02716+P04756+P04760+P09690); assay: Two-electrode voltage clamp of ACh currents, embryonic muscle-type α1β1γδ nAChRs expressed in Xenopus oocytes; format: cell-based; conditions: late current

CCCC(=O)N[C@@H](Cc1ccc(O)cc1)C(=O)NCCCCCCCCCCCCN [PhTX-12]
selectivity over PhTX-343 [1]: 22 fold | selectivity over PhTX-343 (α1β1γδ nAChR; VH −60 mV): 257 fold | selectivity over PhTX-343 (α1β1γδ nAChR; VH −100 mV): 34 fold | selectivity (more potent) over PhTX-343 (α1β1γδ nAChR; −80 mV): 119 fold
